# PSTVd loop 15 mutant pool in Nicotiana benthamiana

The measurements come from Wu et al. 2024 (doi:10.1371/journal.ppat.1012142).

The pool varies loop 15 of the PSTVd intermediate strain in the pattern GGAAACCGNNNNNNC; wild type is GGAAACCGCUACUAC (upper and lower strand joined, each 5' to 3', the first 7 letters being the upper strand, closing pairs included).

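A pool of all variants was put on leaves of three Nicotiana benthamiana plants. Progeny were sequenced from the inoculated region (day 5), the margin of the inoculated leaf (day 10) and systemic leaves (day 12).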

Values are reads per thousand in the sample; higher means more abundant, 0 means not found. Each value is the mean of three plants. "Pool" is the share in the plasmid pool used as inoculum, on the same scale. The inoculated region was read from the minus strand, the other sites from the plus strand.

| sequence | pool | inoculated region | leaf margin | systemic leaves |
|---|---|---|---|---|
| GGAAACCACUACUAC | 0.128 | 0.373 | 0.337 | 0.154 |
| GGAAACCGACUACAC | 0.224 | 0.0963 | 0.0223 | 0 |
| GGAAACCGAGCGGAC | 0.144 | 0.0983 | 0.00668 | 0.00537 |
| GGAAACCGAGUCAGC | 0.160 | 0.0915 | 0.00668 | 0 |
| GGAAACCGAUAUGUC | 0.256 | 0.175 | 0.0187 | 0.00537 |
| GGAAACCGAUAUUUC | 0.272 | 0.353 | 0.123 | 0.0923 |
| GGAAACCGAUCACCC | 0.224 | 0.137 | 0.0215 | 0 |
| GGAAACCGAUCAUAC | 0.176 | 0.274 | 0.0611 | 0.0543 |
| GGAAACCGCAAGGAC | 0.192 | 0.303 | 0.167 | 0.0357 |
| GGAAACCGCAAUCUC | 0.272 | 0.0941 | 0.00668 | 0 |
| GGAAACCGCAUCGGC | 0.224 | 0.0742 | 0 | 0 |
| GGAAACCGCCAAAUC | 0.288 | 0.352 | 0.0613 | 0.0161 |
| GGAAACCGCCACCUC | 0.208 | 0.306 | 0.0960 | 0 |
| GGAAACCGCCACUUC | 0.224 | 0.298 | 0.102 | 0.0582 |
| GGAAACCGCCCUGCC | 0.256 | 0.0407 | 0.00539 | 0 |
| GGAAACCGCCCUGGC | 0.144 | 0.108 | 0.00539 | 0.00537 |
| GGAAACCGCUCACUC | 0.176 | 0.122 | 0.0121 | 0 |
| GGAAACCGCUCUGCC | 0.304 | 0.0730 | 0.0208 | 0 |
| GGAAACCGCUGUCAC | 0.144 | 0.0860 | 0.0208 | 0 |
| GGAAACCGCUUUAAC | 0.144 | 0.0923 | 0.0195 | 0 |
| GGAAACCGGAAACGC | 0.240 | 0.0556 | 0.00742 | 0 |
| GGAAACCGGACAACC | 0.240 | 0.114 | 0.00668 | 0 |
| GGAAACCGGAGCAUC | 0.192 | 0.149 | 0 | 0 |
| GGAAACCGGAGUCGC | 0.256 | 0.111 | 0.0134 | 0 |
| GGAAACCGGCAAACC | 0.288 | 0.107 | 0.00539 | 0 |
| GGAAACCGGCGAAAC | 0.224 | 0.112 | 0.00539 | 0 |
| GGAAACCGGCGAUGC | 0.288 | 0.0698 | 0.0254 | 0 |
| GGAAACCGGGACGUC | 0.192 | 0.0506 | 0 | 0 |
| GGAAACCGGGCCAAC | 0.224 | 0.0613 | 0 | 0 |
| GGAAACCGGGUACCC | 0.208 | 0.0696 | 0.00742 | 0.00537 |
| GGAAACCGGGUCACC | 0.176 | 0.0612 | 0.0108 | 0 |
| GGAAACCGGUGCAGC | 0.272 | 0.0909 | 0.00668 | 0 |
| GGAAACCGGUGGCGC | 0.208 | 0.0939 | 0 | 0.00760 |
| GGAAACCGGUGGGAC | 0.208 | 0.0441 | 0 | 0.00760 |
| GGAAACCGGUUGGGC | 0.192 | 0.115 | 0.00539 | 0 |
| GGAAACCGUAAAAUC | 0.240 | 0.0749 | 0.0134 | 0.00537 |
| GGAAACCGUACGCAC | 0.160 | 0.0984 | 0 | 0 |
| GGAAACCGUAGUUUC | 0.208 | 0.226 | 0.141 | 0.0161 |
| GGAAACCGUCACAUC | 0.288 | 0.102 | 0.0141 | 0 |
| GGAAACCGUCAGACC | 0.272 | 0.0788 | 0.0128 | 0.0107 |
| GGAAACCGUCAUUGC | 0.192 | 0.365 | 0.112 | 0.0688 |
| GGAAACCGUCCUAAC | 0.256 | 0.148 | 0 | 0 |
| GGAAACCGUCGAGGC | 0.256 | 0.0998 | 0 | 0 |
| GGAAACCGUCGAUCC | 0.176 | 0.0930 | 0.0121 | 0 |
| GGAAACCGUCGAUUC | 0.160 | 0.265 | 0.116 | 0.0161 |
| GGAAACCGUCUAACC | 0.336 | 0.0850 | 0.0121 | 0 |
| GGAAACCGUCUUCAC | 0.224 | 0.130 | 0 | 0.00504 |
| GGAAACCGUCUUCCC | 0.176 | 0.0803 | 0.00668 | 0 |
| GGAAACCGUGAGGCC | 0.288 | 0.0787 | 0.0141 | 0 |
| GGAAACCGUGUCUAC | 0.160 | 0.349 | 0.0821 | 0.00537 |
| GGAAACCGUGUCUGC | 0.304 | 0.0668 | 0.0175 | 0 |
| GGAAACCGUGUUUAC | 0.368 | 0.261 | 0.136 | 0.0161 |
| GGAAACCGUUACUCC | 0.208 | 0.316 | 0.118 | 0.0638 |
| GGAAACCGUUAGUGC | 0.192 | 0.316 | 0.108 | 0.0107 |
| GGAAACCGUUGGUAC | 0.192 | 0.298 | 0.146 | 0.0720 |
| GGAAACCGUUGUUCC | 0.176 | 0.0640 | 0.0208 | 0 |

A selection of 4 entries from above:

| sequence | pool | inoculated region | leaf margin | systemic leaves |
|---|---|---|---|---|
| GGAAACCGAGCGGAC | 0.144 | 0.0983 | 0.00668 | 0.00537 |
| GGAAACCGGCGAUGC | 0.288 | 0.0698 | 0.0254 | 0 |
| GGAAACCGUACGCAC | 0.160 | 0.0984 | 0 | 0 |
| GGAAACCGUUAGUGC | 0.192 | 0.316 | 0.108 | 0.0107 |

The authors trace changes outside the varied positions to PCR and sequencing errors or to mutation in the plant; presence does not show that a variant is infectious alone. Wild type was 33.9 per thousand in the pool and the most common sequence in every sample (inoculated region 202, 200, 159; leaf margin 724, 746, 710; systemic leaves 856, 883, 880). With 43,870-66,106 reads a sample, very low values are single reads.